Experimental data as given in patent US20090143419A1, “METHODS AND COMPOSITIONS FOR CONTROLLING ECTOPARASITES” (HATCHTECH PTY LTD, priority 2005, published 2009).

System: lice eggs
Assay: Time-course in vitro lice egg hatching assay
Assay type: in vivo, clothing lice (Pediculus humanus humanus)
Conditions: 5%; results not shown

## OCCN(CCO)CCO
  effect on egg hatching: did not appear to have an effect
